This passage reports EC50 results from US9061010B2, “Methods of treating a Flaviviridae family viral infection and compositions for treating a Flaviviridae family viral infection” (The Board of Trustees of the Leland Stanford Junior …, priority 2007, dated 2015).

Structures are written as SMILES.

This experiment has as its system infectious HCV clone (J6/JFH). As to the kind of experiment: Real-time PCR assay of HCV replication in HCV-infected Huh7.5 cells. As to conditions: read-out: EC50 against HCV replication in cells, FIG. 17D. (In general: Quantitative PCR measures a nucleic acid by following its amplification.)

Usually EC50 stands for the concentration that produces a half-maximal response. `Cc1cc2ncn(Cc3ccc(Cl)cc3)c2cc1C`: the EC50 is 1 µM.
